One compound from the CheMixHub viscosity set can be followed below.

A short description of the series: xn = mol fraction of the nth substance listed. The settings on record: 101 kPa.

Molecules are shown by their SMILES. ± gives the uncertainty stated by the source.

With `CC[N+]1(C)CCCC1.O=S(=O)(F)[N-]S(=O)(=O)F` + O=S(=O)(F)[N-]S(=O)(=O)F.[Na+], the viscosity turned out to be 779 ± 220 mPa·s (303 K, x2 = 0.5); 5830 ± 2800 mPa·s (303 K, x2 = 0.7); 959 ± 290 mPa·s (313 K, x2 = 0.6); 495 ± 120 mPa·s (323 K, x2 = 0.6).
